Human monoclonal antibodies against the spike receptor-binding domain (heavy:light variable regions). IC50 against pseudoviruses bearing the spike of naturally observed variants; lower = stronger; >10 µg/ml means not reached at the top dose. No active / inactive call. The stated detection limit is 0.0005 µg/ml; values near or below 0.001 µg/ml lie at the floor of the assay.
B1: BD56-1655 (protein)
chain 1: EVQLVESGGGLVQPGRSLRLSCAASGFTFNDYAMHWVRQAPGKGLEWVSGISWNSGSIGYADSVKGRFTISRDDAKNSLYLQMNSLRAEDTALYYCAKCLTVTTFLFGAFDIWGQGTMVTVSS
chain 2: EIVLTQSPATLSLSPGERANLSCRSSQSVSNSLAWYQQKPGQAPRLLIYDASNRATGIPARFSGSGSGTDFTLTISSLEPEDFAVYYCQQRSNWPPGLTFGGGTKVEIK
B2: BD56-1643 (protein)
chain 1: EVQLVESGGGLVQPGRSLRLSCAASGFTFGDHAMHWVRQAPGKGLEWVSGISWNSGGIDYADSVKGRFTISRDNSKSSLYLQMNSLRAEDTAFYYCARDSFAEQQLLYGLDVWGQGTTVTVSS
chain 2: DIQMTQSPSSLSASVGDRVTITCRASQTISTYLNWYQQKPGKAPKLLIYAASNLQSGVPSRFSGSGSGTDFTLTISSLQPEDFATYYCQQSYSTPGTFGGGTKVEIK
B3: BD56-1635 (protein)
chain 1: EVQLVESGGGLVKPGGSLRLSCAASGFTFSTYSMNWVRQAPGKGLEWVSSISRGSVDIYYEDSVKGRFTISRDNAKNSLFLQMNSLRAEDTAVYYCARKLRGYSYGYDVWGQGTQVTVSS
chain 2: DIQMTQSPSSLSASVGDRVSITCQASQDINNYLNWYQQKPGKAPKLLIYDAFNLQTGVPSRFSGSGSGTDFTFTISSLQPEDIATYYCQVYDTFGQGTKLEIK
B4: COV2-2499 (protein)
chain 1: QLQLQESGPGLVKPSETLSLTCTVSGGSVSSRSYYWGWIRQPPGKGLEWIGSIYYSGSTYYNPSLKSRVTISVDTSKNQFSLKLSSVTAADTAVYYCARHTVDCGGDCFPNDAFDIWGQGTMVTVSS
chain 2: SSELTQDPAVSVALGQTVRITCQGDSLRSYYASWYQQKPGQAPLLVIYGKNNRPSGIPDRFSGSSSGNTPSLTITGAQAEDEADYYCNFRDSSGHHPVFGEGTKLTVL
B5: BD56-1647 (protein)
chain 1: QVQLVQSGAEVKKPGASVKLSCKASGYSFTNYYIHWVRQAPGQGLEWMGIINPGGGSTTYAQRFRGRVIMTGDTSTSTVYMELSSLRSDDTAVYYCARSAHGIPSARAWFDPWGQGALVTVSS
chain 2: DIQMTQSPSTLSASVGDRVTITCRASQSISNWLAWYQHKPGKAPKVLIYEASSLESGVPPRFSGSGSGTEFTLTISSLQPDDFATYYCQQYSAYLYTFGQGTKLEIK
B6: BD56-1642 (protein)
chain 1: QVQLVESGGGVVQPGRSLRLSCAASGFTFSSYVMYWVRQAPGKGLEWVALISYDGRNKYHADSVKGRFTISRDNSKNTQYLQMNSLRADDTAVYYCAREFDVDSGMVNNDAYGVDVWGQGTTVTVSS
chain 2: DIQMTQSPSSLSASVGDRVTITCRASQTISIYLNWYQQKPGKAPKLLIYTAFSLQRGVPSRFSGSGSGTEFSLTISSLHPEDFATYYCQQSYSIPPLTFGGGTKVEIK
B7: BD56-1675 (protein)
chain 1: QVQLVQSGAEVKTPGSSVKVSCKASGGTFSSYSVSWVRQAPGQGLEWMAKIIPMLDIADSAQRFQGRVTLTADKSTSTAYMELSSLRSEDTAVYYCAREVGYSGYGSNWYFDVWGRGTLVTVSS
chain 2: QSVLTQPPSVSGAPGQRVTISCTGTNSNIGAGYDVHWYQQLPGTAPKLLIYGNINRPSGVPDRFSGSKSDTSASLAITGLQAEDEADYYCQSYDSSLTIFGGGTKLTVL
B8: BD56-1674 (protein)
chain 1: QVQLVESGGGVVQPGRSQRLSCAASGFSFSTYAMYWVRQAPGKGLEWVAFISYDGSDKNYADSVKGRFTISRDNTKNTLYLQMNSLRGEDTAVYYCAREFTNIWYGDFWGQGSLVTVSS
chain 2: DIQMTQSPSTLSASVGDRVTITCRASQSISTWLAWYQQKPGKAPKLLIYKASSLQSGVPSRFSGSGSGTDFTLTISSLQPDDFASYYCQQYHGAVSWTFGQGTKVEIK
B9: BD56-1658 (protein)
chain 1: QVQLVQSGAEVKKPGSSVKVSCKASGGTFSSYPITWVRQAPGQGLEWMGQIIPILGIANYAQRFQGRVTITADKSTSTANMELSSLRSEDTAIYYCARARGYSSSGSAYYFDFWGQGTLVTVSS
chain 2: QSVLTQPPSVSGAPGQRVTISCTGSSSNIGAGYDVHWYQQLPGTAPKLLIYANNNRPSGVPDRFSGSKSGTSASLAITGLQAEDESDYYCQSYDSSLSGSVFGGGTKLTVL
B10: BD56-1640 (protein)
chain 1: QVQLVESGGGVVRPGRSLRLSCAASGFTFTNYGMHWVRQAPGKGLEWVAVIWYDGSNKDYADSVKGRFTISRDNSKNTLYLQMNSLRAEDTAMYYCAKPIYSYASGSYPDYWGQGTLVTVSS
chain 2: DIQMTQSPSSLSASVGDRVTITCQASQDIGNYLNWYQQRPGKAPKLLIYDASNLETGVPSRFSGSGSGTDFTFTISSLQPEDIATYYCQQYDNQYDNLSWTFGPGTKVEIK
B11: BD56-1672 (protein)
chain 1: QITLKESGPALVKPTQTLTLTCTFSGFSLSTSGVAVGWVRQPPGKALEWLALIYWDDDKRYRPSLKSRLTITKDTSKNQVVLRMTYMDPVDTATYFCAHGRDLPYAEYFQDWGQGTLVTVSP
chain 2: SYELTQPPSVSVSPGQTARITCSGDAFPNLYAYWYQQKPGQAPVVVIYKDTERPSGIPERFSGSSSGTTVTLTISGVQAEDEADYYCQSGDSSGRVFGGGTKLTVL
B12: BD56-1673 (protein)
chain 1: QVQLVESGGGGVVQPGRSQRLSCAASGFTFSSHAMHWVRQAPGKGLEWVAIISYDGSSKHYADSVKGRFTISRDNSKYTLYLHMNSLRPEDTAVYYCVRDAGYCSASRCQTQDYFDYWGQGTQVTVSS
chain 2: SYVLTQPPSVSVAPGKTARITCGGSEIGSKGVHWYQQKPGQAPVLVIYYDNDRPSGIPERFSGSNSGNTATLTISRVEGGDEADYYCQVWDSSSDHHWVFGRGTKLTVL

Legend:
Assay in all cases: pseudovirus neutralization IC50; higher = weaker neutralization
[1] = molecular target: SARS-CoV-2 Omicron BA.1 spike pseudovirus
Protocol: (§1)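 Single-round VSV luciferase pseudovirus mixed with antibody dilutions for 1 h and put on Huh-7 cells for about a day; IC50 from the dose curve.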

[2] = molecular target: SARS-CoV-2 Omicron BA.2 spike pseudovirus
Protocol: as §1

[3] = molecular target: SARS-CoV-2 Omicron BA.2.75 spike pseudovirus
Protocol: as §1

[4] = molecular target: SARS-CoV-2 Omicron BA.5 spike pseudovirus
Protocol: as §1

[5] = molecular target: SARS-CoV-2 Omicron BQ.1.1 spike pseudovirus
Protocol: as §1

[6] = molecular target: SARS-CoV-2 Omicron XBB spike pseudovirus
Protocol: as §1

[7] = molecular target: SARS-CoV-2 early D614G spike pseudovirus
Protocol: as §1

Binder	pseudovirus neutralization IC50 [1] [µg/mL]	pseudovirus neutralization IC50 [2] [µg/mL]	pseudovirus neutralization IC50 [3] [µg/mL]	pseudovirus neutralization IC50 [4] [µg/mL]	pseudovirus neutralization IC50 [5] [µg/mL]	pseudovirus neutralization IC50 [6] [µg/mL]	pseudovirus neutralization IC50 [7] [µg/mL]
B1	> 10	> 10	> 10	> 10	> 10	> 10	> 10
B2	> 10	> 10	> 10	> 10	> 10	> 10	3.92
B3	> 10	> 10	> 10	> 10	> 10	> 10	> 10
B4	> 10	> 10	> 10	> 10	> 10	> 10	0.0024
B5	> 10	> 10	> 10	> 10	> 10	> 10	> 10
B6	> 10	> 10	> 10	> 10	> 10	> 10	> 10
B7	0.0671	0.034	0.039	0.52	2.63	1.99	0.203
B8	> 10	> 10	> 10	> 10	> 10	> 10	> 10
B9	0.0507	0.0344	0.0221	1.53	3.75	2.15	0.373
B10	> 10	> 10	> 10	> 10	> 10	> 10	> 10
B11	> 10	8.18	8.75	> 10	> 10	> 10	4.95
B12	5.77	8.26	5.15	8.44	6.41	5.67	6.66

Source: the supplement of paper PMC9931576
